PubChem BioAssay AID624099, ICCB-Longwood | 2012
In all, the deposit lists about 21,000 reagents; shown is an unselected part. Over the whole deposit, 497 (2.4%) were called active. 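Higher z means weaker E2 silencing; only reporter increases were scored, and knock-downs that hurt cell survival may mask genuine repressor factors.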 A number with no mark means an inactive call.

- Assay: 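Human genes that papillomavirus E2 requires to repress the HPV18 LCR promoter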 (primary screen)
- System: human C33A cervical carcinoma cells (HPV-negative) stably expressing BPV1 E2 and an HPV18 LCR luciferase reporter
- Knock-down reagent: siRNA pool against human genes, 40 nM
- Time to read-out: 72 h
- Detection: 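Per-well luciferase luminescence, z-scored on each plate against the plate mean and SD with control wells left out, then averaged across three replicate plates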
- Reading the numbers: mean z-score and z-score: higher = stronger reporter signal, weaker E2 silencing
- Rule for the call: 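Mean z ≥ 2 together with z ≥ 2 in two or more of the three replicates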

The opening 2 records as a preview:
target gene | mean z-score | z-score, replicate A | z-score, replicate B | z-score, replicate C
MMGT1 (GeneID 93380) | 0.31 | 0.43 | 0.22 | 0.28
RIMKLA (GeneID 284716) | -1.03 | -0.99 | -0.77 | -1.33

Main list, from the start:
target gene | mean z-score | z-score, replicate A | z-score, replicate B | z-score, replicate C
MMGT1 (GeneID 93380) | 0.31 | 0.43 | 0.22 | 0.28
RIMKLA (GeneID 284716) | -1.03 | -0.99 | -0.77 | -1.33
ADAMTS15 (GeneID 170689) | 0.75 | 0.85 | 0.55 | 0.86
LOC400606 (retired record) (GeneID 400606) | -0.48 | -0.55 | -0.27 | -0.62
KRTAP3-2 (GeneID 83897) | 1.98 | 2.14 | 1.93 | 1.87
LOC390278 (retired record) (GeneID 390278) | 2.15 (active) | 2.3 | 1.88 | 2.27
LARP7 (GeneID 51574) | 1.57 | 2.09 | 1.56 | 1.05
TUBB2A (GeneID 7280) | 0.52 | 0.48 | 0.49 | 0.6
ZIC2 (GeneID 7546) | 0.19 | 0.32 | 0.28 | -0.02
HSD17B1 (GeneID 3292) | -0.57 | -0.7 | -0.18 | -0.83
MED23 (GeneID 9439) | 1.93 | 2.16 | 1.88 | 1.74
UBR1 (GeneID 197131) | -0.62 | -0.57 | -0.77 | -0.53
LZIC (GeneID 84328) | 0.86 | 0.91 | 1.06 | 0.6
LOC391241 (retired record) (GeneID 391241) | -0.98 | -0.88 | -0.93 | -1.14
BCO2 (GeneID 83875) | 1.08 | 0.57 | 1.33 | 1.33
PRDM16-DT (GeneID 440556) | -1.29 | -1.37 | -1.22 | -1.27
WTAP (GeneID 9589) | -0.27 | 0 | -0.19 | -0.63
C11orf68 (GeneID 83638) | 1.88 | 2.12 | 2.15 | 1.38
FRK (GeneID 2444) | 1.37 | 1.23 | 1.96 | 0.91
CHMP4A (GeneID 29082) | -0.58 | -1.11 | -0.36 | -0.26
DMGDH (GeneID 29958) | 1.07 | 1.22 | 1.17 | 0.83
PI4K2B (GeneID 55300) | -1 | -1.3 | -1.25 | -0.46
GNAT1 (GeneID 2779) | -1.01 | -1.01 | -1.07 | -0.94
